Key:
[1] = molecular target: recombinant HA, subtype H1 (A/New Caledonia/20/99 (H1N1)) (influenza A virus A/New Caledonia/20/99 …, UniProt Q289M7 18-565); test: ELISA, coated HA, IgG 5 µg/ml
[2] = molecular target: recombinant HA, subtype H5 (A/Vietnam/1203/2004 (H5N1)) (influenza A virus A/Vietnam/1203/2004 …, UniProt Q80A26 6-554); test: ELISA, coated HA, IgG 5 µg/ml

| Binder | OD 492 nm [1] [OD 492 nm] | OD 492 nm [2] [OD 492 nm] |
| --- | --- | --- |
| CR6325 (antibody, V domains shown) VH: EVQLVESGAEVKKPGSSVKVSCKASGGTFSFYSMSWVRQAPGQGLEWMGGIIPMFGTTNYAQKFQGRVTITAVESTSTAYMEVSSLRSEDTAVYYCARGDKGIYYYYMDVWGKGTTVTVSS VL: QSALTQPASVSGSPGQSITISCTGTSSDVGGYNYVSWYQQHPGKAPKLMIYEVSNRPSGVSNRFSGSKSGNTASLTISGLQAEDEADYYCSSYTSSSTLVFGTGTKVTVLG | 1.42 | 1.3 |
| CR6329 (antibody, V domains shown) VH: EVQLVQSGAEVKKPGSSVKVSCKASGGIFRSNSISWVRQAPGQGLEWMGGIFALFGTTDYAQKFQGRVTITADESSTTVYLELSSLTSEDTAVYYCARGSGYTTRNYFDYWGQGTLVTVSS VL: EIVLTQSPGTLSLSPGERATLSCRASQSVSSNYLGWYQQKPGQAPRLLIYGASSRASGIPDRFSGGGSGTDFTLTISRLEPEDFAVYYCQQYGSSPLTFGGGTKVEIKR | 1.98 | – |
| CR6342 (antibody, V domains shown) VH: QVQLVQSGAEVKKPGSSVKVSCKASGGFFSSYAISWVRQAPGQGLEWMGGVIPIFRTANYAQNFQGRVTITADEFTSYMELSSLRSDDTAVYYCARLNYHDSGTYYNAPRGWFDPWGQGTLVTVSS VL: DIQMTQSPDSLAVSLGEKATINCKSSQSILNSSNNKNYLAWYQQKPGQPPKLLIYWASTRESGVPDRFSGSGSGTDFTLTISSLQAEDVAVYYCQQYYSSPPTFGQGTKVEIKR | 1.99 | 1.25 |

— patent US20090311265A1 (CRUCELL HOLLAND B V, published 2009)
